Experimental findings from US9839642B2, “Beta-tetrazolyl-propionic acids as metallo-beta-lactamase inhibitors” (priority 2014, dated 2017) are described below.

Amino acid sequences for entries named in this document (tags omitted). Residues count along the entry.
UniProt P52699, 19-246 limits assumed: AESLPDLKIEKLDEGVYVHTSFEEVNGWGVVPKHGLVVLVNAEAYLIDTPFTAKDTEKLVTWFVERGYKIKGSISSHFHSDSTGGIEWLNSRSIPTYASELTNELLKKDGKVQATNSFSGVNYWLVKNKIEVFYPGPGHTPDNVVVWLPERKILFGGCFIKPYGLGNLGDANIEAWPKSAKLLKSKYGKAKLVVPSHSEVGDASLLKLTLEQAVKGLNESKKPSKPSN
UniProt C7C422, 29-270 limits assumed: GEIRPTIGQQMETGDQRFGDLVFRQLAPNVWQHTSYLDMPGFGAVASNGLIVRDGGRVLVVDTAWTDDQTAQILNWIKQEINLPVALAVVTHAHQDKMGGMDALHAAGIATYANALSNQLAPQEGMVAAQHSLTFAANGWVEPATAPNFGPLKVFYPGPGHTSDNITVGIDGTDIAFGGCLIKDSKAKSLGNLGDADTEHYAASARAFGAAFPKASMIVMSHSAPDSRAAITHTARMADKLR

pIC50: −log10 of the molar value.

One assay deals with IMP-1 (Serratia marcescens, UniProt P52699). Description: Enzyme activity: determination of IC50, fluorescence assay with CCF2-FA substrate. Type of assay: biochemical. The following applies: read-out: IMP1 IC50; enzyme 2 pM, CCF2-FA 1.25 μM, 2 hours at 25° C. As for the experimental part: (§1) Enzyme Activity: Determination of IC50
(§2) The Class B enzyme activities were measured in the presence of a compound of the EXAMPLES as a test inhibitor in a fluorescence assay against a commercially available substrate consisting of a cephalosporin core linking 7-hydroxycoumarin to fluorescein (CCF2-FA; Life Technologies, Grand Island, N.Y.). The enzyme (NDM-1, IMP-1 or VIM-1) and the substrate were diluted in 100 mM KH2PO4 buffer (pH 7) containing 0.005% Tween-20 and 10 μM ZnSO4. In the assay, the final concentration of enzyme was 1 pM, 2 pM and 30 pM for NDM-1, IMP-1 and VIM-1, respectively, and the final concentration of CCF2-FA was 1.25 μM. The test inhibitor was dissolved in DMSO and diluted 1:50 in the assay, resulting in a final concentration range of 20 μM to 0.00063 μM. In a 384-well microplate, the test inhibitor was incubated with the metallo-β-lactamase enzyme and the substrate for 2 hours at 25° C. Fluorescence at 460 nm following excitation at 405 nm was measured. The IC50 value was determined from semi-logarithmic plots of enzyme inhibition versus inhibitor concentration, with a curve generated using a 4-parameter fit.

In the next assay the target is NDM-1 (Klebsiella pneumoniae, UniProt C7C422). Described as above. Type of assay: biochemical. The following applies: read-out: NDM1 IC50; enzyme 1 pM, CCF2-FA 1.25 μM, 2 hours at 25° C. As for the experimental part:
as §1, §2

The target of a further assay is VIM-1 (Pseudomonas aeruginosa, UniProt A0A0F7KYQ8). The description is as above. As to conditions: read-out: VIM1 IC50; enzyme 30 pM, CCF2-FA 1.25 μM, 2 hours at 25° C. Type of assay: biochemical. As for the experimental part:
as §1, §2

In assay [1] the test system is Escherichia coli expressing NDM-1 (CLB30016). Description: Antibiotic potentiation activity: synergistic concentration (MITC95) with imipenem, growth by OD600. As to conditions: 95% inhibition of bacterial growth, strain CLB30016. Type of assay: cell-based. Here is the method: (§3) Antibiotic Potentiation Activity: Determination of Synergistic Concentration
(§4) The bacterial strains tested included the clinical strains Escherichia coli expressing NDM-1 (CLB30005, CLB30016), Serratia marcescens expressing IMP-1 (CL5741), and Klebsiella pneumoniae expressing VIM-1 (IHMA599644). Inhibitor activity was measured in the presence and absence of imipenem or ceftazidime in a 384-well microplate.
(§5) The clinical strains CLB30016, CL5741, and IHMA599644 were grown on trypticase soy agar containing 5% sheep's blood. The clinical strain CLB30005 was grown on Mueller Hinton broth agar containing 8 μg/ml imipenem. The bacteria on agar plates were incubated overnight at 35° C. with ambient humidity (achieved from an open pan of water inside the incubator). The following day, individual colonies from each clinical strain were picked and resuspended in 5 ml saline to attain an OD600 of 0.14, 0.11, 0.15 and 0.13, for CLB30005, CLB30016, CL5741 and IHMA599644, respectively. These were further diluted 1:100 into 1.1×CAMHB and used to inoculate the test wells as described below.
(§6) Imipenem in 10 mM 3-(N-morpholino)propanesulfonic acid (MOPS, pH 7) was stored in single use aliquots at −80° C. Test inhibitors were dissolved in DMSO and diluted 1:50 in the assay, resulting in a final concentration range of 200 μM to 0.195 μM. On the day of the assay, 4 μl of antibiotic was added to 45 μl of bacteria followed by 1 μl of test compound and mixed by pipetting and with an orbital shaker. The concentration of antibiotic used in the assay was 1 μg/ml or 4 μg/ml. […] At the end of the incubation, absorbance was determined using a spectrophotometer. The synergistic concentration of MBLI was determined by identifying the lowest concentration of test compound in the presence of a given concentration of antibiotic that was required to inhibit 95% of the growth of the bacteria. […]
(§7) Representative compounds of the present invention display a synergistic effect. For example, representative compounds of EXAMPLES 1-456 were determined to restore susceptibility to imipenem at concentrations of 200 μM or less.

For assay [2], the system named is Klebsiella pneumoniae expressing VIM-1 (IHMA599644). The assay is described as above. It is filed as cell-based. As to conditions: 95% inhibition of bacterial growth, strain IHMA599644. Here is the method:
as §3, §4, §5, §6, §7

Assay [3] relates to Serratia marcescens expressing IMP-1 (CL5741). The description is as above. It is filed as cell-based. As to conditions: 95% inhibition of bacterial growth, strain CL5741. Here is the method:
as §3, §4, §5, §6, §7

For orientation: pIC50 means −log10 of the IC50, conventionally taken in molar units. Take `CCC[C@H](C(=O)O)[C@H](Cc1ccc(-c2ccc(CO)cc2)cn1)c1nnn[nH]1`: the pIC50 on IMP-1 was 5.49; at NDM-1, 6.92; at VIM-1 it was 6.96. For the same molecule, in assay [1], the “NDM1 EC30016 MITC95” value is 18.8 µM. Besides, the “VIM1 KP599644 MITC95” value in assay [2] worked out at 200 µM. Besides, the “IMP1 SM5741 MITC95” value in assay [3] worked out at 150 µM.
